Pooled drug test results. Numbers come from NIAID ChemDB, via PubChem.

Shared fields: whole-cell or culture tests; species: HIV-1; measure: EC50

Rows are shuffled and stem from different studies. An empty or dashed field is not shown. Two numbers with a dash give a range or band. ECn: concentration that inhibits the pathogen or its effect by n%.

smiles,setting,cells,method,strain,mutations,value
Cc1cc(S(N)(=O)=O)ccc1NC(=O)COc1ccc(Cl)cc1C(=O)c1cccc(C#N)n1,,HeLa + HELA CD4+,β-galactosidase,HXB2,RT-V108I Y181C,<0.01 µM
Cc1ncc(-c2ccc(N(C)CCOc3c(F)cccc3Cl)cn2)c(N2CCC(C)(C)CC2)c1[C@H](OC(C)(C)C)C(=O)O,,MT-2,luminescence,NL4-3,,0.002 µM
C[C@@H]1CN(C(=O)c2ccccc2)CCN1C(=O)C(=O)c1c[nH]c2c(NC(=O)Nc3ccc(C(=O)C(F)(F)F)cc3)cccc12,,HeLa,luciferase / reporter gene,,,<1 µM
Cc1ncc(-c2ccc(OCC3(C)CC3)nc2)c(N2CCC(C)(C)CC2)c1[C@H](OC(C)(C)C)C(=O)O,,MT-2,luminescence,NL4-3,,0.0075 µM
C[C@@H]1CCO[C@H]2Cn3cc(C(=O)NCc4ccc(F)cc4F)c(=O)c(O)c3C(=O)N12,,TZM-bl,luciferase / luminescence,,I60M/L74F/V75I,0.0012 µM
Nc1ccn([C@@H]2C=C(F)[C@H](CO)O2)c(=O)n1,,PBMC,PCR,BRU-184V,,<68.4 µM
NC(N)=NCCC[C@H](N)C(=O)NC[C@@H]1OC(O[C@H]2[C@@H](O)[C@H](O[C@@H]3[C@@H](O)[C@H](NC(=O)[C@@H](N)CCCN=C(N)N)C[C@H](NC(=O)[C@@H](N)CCCN=C(N)N)[C@H]3O[C@H]3O[C@H](CNC(=O)[C@@H](N)CCCN=C(N)N)[C@@H](O)[C@H](O)[C@H]3NC(=O)[C@@H](N)CCCN=C(N)N)O[C@@H]2CO)[C@H](NC(=O)[C@@H](N)CCCN=C(N)N)[C@@H](O)[C@@H]1O,,MT-2,p24 / RT activity,B (AZT/3TC-resistant),,3.6 µM
CCN1c2ncc(CCOc3ccc(-n4nc(C(=O)O)cc4C)cc3C)cc2C(=O)N(C)c2cccnc21,,C8166,p24,,RT-K103N Y181C,>0.05 µM
COc1ccc(S(=O)(=O)N(CC(C)C)C[C@@H](O)CCN(CC2CCCC2)S(=O)(=O)C2SC(NC(C)=O)=NC2C)cc1,,CEM,p24,IIIB,,<1 µM
COc1ccc(-c2c(C(OC(C)C)C(=O)O)c(C)nc3ccc(Cl)cc23)c(F)c1,,C8166,luciferase / reporter gene,,,<20 µM
C[C@H]1[C@H](O)[C@@H](C)/C=C/C=C/C=C/C=C/C=C/C=C/C=C/[C@H](O[C@@H]2O[C@H](C)[C@@H](O)[C@H](N)[C@@H]2O)C[C@@H]2O[C@](O)(C[C@@H](O)C[C@@H](O)CC[C@H](O)[C@@H](O)C[C@@H](O)CC(=O)O[C@H]1C)C[C@H](O)[C@H]2C(=O)O,,PBMC,p24 / RT activity,MDR807 Primary isolate X4 (SI),,0.9 µM
CC1(C)CC=C(c2cn(-c3nccc(C(=O)NC4CCC(N5CC6CCC(C5)O6)CC4)n3)c3ccc(F)c([C@H](OC(C)(C)C)C(=O)O)c23)CC1,,MT-4,luminescence,NL4-3,T124A,0.0058 µM
Cc1nc2ccc(Br)cc2c(-c2ccc(Cl)cc2)c1C(OCCCC#N)C(=O)O,,C8166,luciferase / reporter gene,,,<20 µM
CCOC(=O)c1cccc(NC(=O)Nc2cccc3c(C(=O)C(=O)N4CCC(=C(C#N)c5ccccc5)CC4)c[nH]c23)c1,,HeLa,luciferase / reporter gene,,,<1 µM
CC(=O)c1c(C)nc(-c2ccccc2)nc1NC(=O)c1ccccc1,,HeLa,GFP / fluorescence,7295-1,,0.08 µM
CC(C)COC(=O)Nc1cccc2c(C(=O)C(=O)N3CCN(C(=O)c4ccccc4)CC3)c[nH]c12,,HeLa,luciferase / reporter gene,,,<1 µM
COC(C(=O)O)c1c(C)nc2ccc(Cl)cc2c1-c1ccc2c(c1)CCO2,,C8166,luciferase / reporter gene,,,<20 µM
COc1ccc(S(=O)(=O)N(CC2CCCC2)C[C@@H](O)CN(CCc2ccccc2)C(=O)O[C@H]2CCOC2)cc1,,CEM,p24,IIIB,,<0.1 µM
Cc1cc(F)ccc1OCCNc1ccc(-c2cnc(C)c([C@H](OC(C)(C)C)C(=O)O)c2N2CCC(C)(C)CC2)cn1,,MT-2,luminescence,NL4-3,,0.0025 µM
Cc1ccc(-c2c([C@H](OC(C)C)C(=O)O)c(C)nc3ccccc23)cc1,,C8166,luciferase / reporter gene,,,<20 µM
CC(C)CN(CC(O)CCc1ccccc1C(=O)NC(C)(C)C)S(=O)(=O)c1ccccc1,,CEM,p24,IIIB,,<1 µM
CC(C)C1=C2[C@H]3CC[C@@H]4[C@@]5(C)CC[C@H](OC(=O)[C@H]6C[C@@H](C(=O)O)C6(C)C)C(C)(C)[C@@H]5CC[C@@]4(C)[C@]3(C)CC[C@@]2(CCNCC(C)(C)NC(=O)c2csc(N)n2)CC1=O,,MT-2,p24 / ELISA,92HT599,,<1 µM
CC(C)=CCOc1cc(NC(=S)c2ccoc2C)ccc1Cl,,CEM + CEM-SS,cytopathic effect / XTT,UC38-RS (RT-Y181C),RT-Y181C,0.9 µM
CCCC(C(=O)O)c1c(-c2ccc(Cl)cc2)c2ccccc2[nH]c1=O,,C8166,luciferase / reporter gene,,,<20 µM
CCN1c2ncc(CCOc3ccc(-c4cnc[nH]4)cc3C)cc2C(=O)N(C)c2cccnc21,,C8166,p24,,RT-K103N Y181C,<0.01 µM
Cc1cc2cn[nH]c2cc1NC(=O)COc1ccc(Cl)cc1C(=O)c1cccc(C#N)c1,,HeLa + HELA CD4+,β-galactosidase,HXB2,RT-P225H,<0.01 µM
CC(C)=CCOc1cc(NC(=S)c2ccsc2C)ccc1Cl,,CEM + CEM-SS,p24,NL4-3,RT-Y188C,0.006 µM
CC(C)C1=C2[C@H]3CC[C@@H]4[C@@]5(C)CC[C@H](OC(=O)[C@H]6C[C@@H](C(=O)O)C6(C)C)C(C)(C)[C@@H]5CC[C@@]4(C)[C@]3(C)CC[C@@]2([C@@H](O)CNC(=O)c2ccc(C(F)(F)F)cc2)CC1=O,,MT-2,p24 / ELISA,92HT599,,<1 µM
CC(C)CN(C[C@@H](O)[C@H](Cc1ccccc1)NC(=O)O[C@H]1CO[C@H]2OCC[C@H]21)S(=O)(=O)c1ccc2nc(NC3CCN(C4CCCC4)CC3)sc2c1,,MT-4,reporter gene,T20760,L10F I47I/V,65 nM
Cc1cc(S(N)(=O)=O)ccc1NC(=O)COc1ccc(Cl)cc1C(=O)c1cc(F)cc(C#N)c1,,HeLa + HELA CD4+,β-galactosidase,HXB2,RT-P236L,<0.01 µM
Cc1ncc(-c2ccc(OCC3CC3)cn2)c(N2CCC(C)(C)CC2)c1[C@H](OC(C)(C)C)C(=O)O,,MT-2,luminescence,NL4-3,,0.0016 µM
Cc1ccc(-c2ccc(NC(=O)N3CCC4(CCO4)CC3)cc2)cc1,pseudotyped,TZM-bl,luminescence,VSV-G,,>30 µM
CC1CC(C)CN(S(=O)(=O)c2ccccc2[N+](=O)[O-])C1,,PBMC,GFP / fluorescence,B-92US026,,0.37 µM
C#C[C@@]1(CO)C=C[C@H](n2cc(C)c(=O)[nH]c2=O)O1,,MT-2,recombinant virus assay,Clinical isolate,K65R M184V,0.6137 µM
Cc1nc2ccc(Br)cc2c(-c2ccc(Cl)cc2)c1C(OCCC(C)C)C(=O)O,,C8166,luciferase / reporter gene,,,<20 µM
Cc1cc2[nH]cnc2cc1NC(=O)COc1ccc(Cl)cc1C(=O)c1cc(F)cc(C(F)(F)F)c1,,HeLa + HELA CD4+,β-galactosidase,HXB2,RT-V106I,<0.01 µM
CC(C)CCC[C@@H](C)[C@H]1CCC2C3CCC4C[C@@H](O[C@H]5O[C@H](COS(=O)(=O)[O-])[C@@H](OS(=O)(=O)[O-])[C@H](OS(=O)(=O)[O-])[C@@H]5O[C@H]5O[C@H](COS(=O)(=O)[O-])[C@@H](OS(=O)(=O)[O-])[C@H](O[C@H]6O[C@H](COS(=O)(=O)[O-])[C@@H](OS(=O)(=O)[O-])[C@H](O[C@H]7O[C@H](COS(=O)(=O)[O-])[C@@H](OS(=O)(=O)[O-])[C@H](OS(=O)(=O)[O-])[C@@H]7OS(=O)(=O)[O-])C6OS(=O)(=O)[O-])[C@@H]5OS(=O)(=O)[O-])CC[C@]4(C)C3CC[C@@]21C,,PBMC,p24 / ELISA / antigen,HI05-91 isolate (R5),,52 µg/mL
Cc1ccnc2c1NC(=O)c1cccnc1N2C1CC1,,TZM-bl,p24 / ELISA,SF33,Y188L,10 µM
CCCC(C(=O)O)c1c(C)nc2ccccc2c1-c1ccc(C)cc1,,C8166,luciferase / reporter gene,,,<20 µM
CCOC(=O)CC[C@@H]1NC(=O)N(c2cccc3c(C(=O)C(=O)N4CCC(=C(C#N)c5ccccc5)CC4)c[nH]c23)C1=O,,HeLa,luciferase / reporter gene,,,<1 µM
Cc1ncc(-c2cnc(OCCNC(C)(C)C)c(F)c2)c(N2CCC(C)(C)CC2)c1[C@H](OC(C)(C)C)C(=O)O,,MT-2,luminescence,NL4-3,,0.0154 µM
CC(C)C1=C2[C@H]3CC[C@@H]4[C@@]5(C)CC[C@H](OC(=O)[C@H]6C[C@@H](C(=O)O)C6(C)C)C(C)(C)[C@@H]5CC[C@@]4(C)[C@]3(C)CC[C@@]2(CCNCC2(NC(=O)c3ccc(Cl)cc3)CCCCC2)CC1=O,,MT-2,p24 / ELISA,92HT599,,<1 µM
CCCc1cc(=O)oc2c3c(c4c(c12)OC(C)(C)CC4)O[C@@H](C)[C@H](C)[C@@H]3O,,CEM + CEM-SS,XTT,NL4-3,RT-A98G,0.2 µM
Cc1nnc(C(=O)N(CCN(C)C)C[C@H](O)[C@@]23CC[C@]4(C)[C@H](CC[C@@H]5[C@@]6(C)CC[C@H](OC(=O)[C@H]7C[C@@H](C(=O)O)C7(C)C)C(C)(C)[C@@H]6CC[C@]54C)C2=C(C(C)C)C(=O)C3)o1,,MT-2,p24 / ELISA,92HT599,,<1 µM
C[C@H](Cn1cnc2c(N)ncnc21)OCP(=O)(O)O,,MT-2,recombinant virus assay,Clinical isolate,A62V (mixture)/L74V/V75I (mixture)/K103N/Y115F/F116Y/Q151M,0.0052 µM
C=C(C)[C@@H]1CC[C@]2(C(=O)NCCC(C)(C)C)CC[C@]3(C)[C@H](CC[C@@H]4[C@@]5(C)CC[C@H](OC(=O)CC(C)(C)C(=O)O)C(C)(C)[C@@H]5CC[C@]43C)[C@@H]12,,,absorbance,NL4-3,,0.0368 µM
CCN1c2ncc(CCOc3ccc(C(=O)Nc4cccnc4C)cc3C)cc2C(=O)N(C)c2cccnc21,,C8166,p24,,RT-K103N Y181C,<0.01 µM
O=C(N[C@@H](Cc1ccccc1)C(=O)C(F)(F)N(Cc1ccccc1)S(=O)(=O)c1ccccc1)OC1COCOC1,,CEM,p24,IIIB,,<1 µM
CCN1c2ncc(CCOc3ccc(C(=O)NS(=O)(=O)c4ccccc4)cc3C)cc2C(=O)N(C)c2cccnc21,,C8166,p24,IIIB,,0.01–0.05 µM
Cc1ncc(-c2ccc(O[C@@H](C)COc3ccccc3)nc2)c(N2CCC(C)(C)CC2)c1[C@H](OC(C)(C)C)C(=O)O,,MT-2,luminescence,NL4-3,,0.0035 µM
COc1ccc(S(=O)(=O)N(CC(C)C)C[C@@H](O)CCN(CC(C)C)S(=O)(=O)N(C)C)cc1,,CEM,p24,IIIB,,<1 µM
Cc1ncc(-c2ccc(OCCOc3ccc(C(=O)O)cc3)cn2)c(N2CCC(C)(C)CC2)c1[C@H](OC(C)(C)C)C(=O)O,,MT-2,luminescence,NL4-3,,0.1259 µM
Cc1cc(S(N)(=O)=O)ccc1NC(=O)COc1ccc(Cl)cc1C(=O)c1cccc(C#N)c1,,HeLa + HELA CD4+,β-galactosidase,HXB2,RT-E138K,<0.01 µM
CCC(=O)c1ccc(F)c([C@@H]2C[C@@H]2NC(=O)Nc2ccc(C#N)cn2)c1O,,TZM-bl,β-galactosidase / luminescence,LAI,NNRTI-resistant (RT Y181C/G190A),0.00126 µM
Cc1nc2ccccc2c(-c2cc(F)c3c(c2C)CCCO3)c1[C@H](OC(C)(C)C)C(=O)O,,MT-4,luminescence,NL4-3,T66I,0.015 µM
COc1ccc(S(=O)(=O)N(Cc2ccccc2)CC(F)(F)C(=O)[C@@H](Cc2ccccc2)NC(=O)OCc2ccccc2)cc1,,CEM,p24,IIIB,,<1 µM
COc1cccc2[nH]cc(C(=O)C(=O)N3CCN(C(=O)c4ccccc4)C[C@H]3C)c12,,MT-2/CXCR4,virus yield,LAV,,0.00198 µM
Nc1ccn([C@H]2CC[C@@H](CO)O2)c(=O)n1,,,β-galactosidase,NL4-3,L204I,0.226 µM
Cc1cc(S(N)(=O)=O)ccc1NC(=O)COc1ccc(Cl)cc1C(=O)c1cc(F)cc(F)c1,,MT-4,cytopathic effect / propidium iodide,IIIB,,<0.01 µM
CCN1c2ncc(CCOc3ccc(-c4cccc(C(=O)O)c4)cc3)cc2C(=O)N(C)c2cccnc21,,C8166,p24,IIIB,,<0.01 µM
CC(C)C1=C2[C@H]3CC[C@@H]4[C@@]5(C)CC[C@H](OC(=O)[C@H]6C[C@@H](C(=O)O)C6(C)C)C(C)(C)[C@@H]5CC[C@@]4(C)[C@]3(C)CC[C@@]2([C@@H](O)CNCc2ccc(N3CCC(N4CCOCC4)CC3)cc2)CC1=O,,MT-2,p24 / ELISA,92HT599,,<1 µM
CCN1c2ncc(CCOc3ccc(-c4ccc(N)c(C(=O)O)c4)cc3C)cc2C(=O)N(C)c2cccnc21,,C8166,p24,IIIB,,<0.01 µM
CC(C)=CCOc1cc(NC(=S)c2ccsc2C)ccc1Cl,,CEM + CEM-SS,cytopathic effect / XTT,Thiazolobenzimidazole-resistant (RT V108I),RT-V108I,0.06 µM
CC(C)C1=C2[C@H]3CC[C@@H]4[C@@]5(C)CC[C@H](OC(=O)[C@H]6C[C@@H](C(=O)O)C6(C)C)C(C)(C)[C@@H]5CC[C@@]4(C)[C@]3(C)CC[C@@]2(CCNC[C@@H](NC(=O)c2ccc(Cl)cc2)C(C)O)CC1=O,,MT-2,p24 / ELISA,92HT599,,<1 µM
Cc1cc(C#N)cc(C(=O)c2cc(Cl)ccc2OCC(=O)Nc2cnc(S(N)(=O)=O)cc2C)c1,,HeLa + HELA CD4+,β-galactosidase,HXB2,RT-L100I,<0.01 µM